Pooled drug test results. Numbers come from NIAID ChemDB, via PubChem.

Common to all: growth or infection tests; organism: Hepatitis C virus

Lines come from different laboratories, so protocols vary. ECn is the concentration giving n% inhibition of infection, replication or growth. An empty or dashed field is not shown.

SMILES,read-out,cell line,strain or isolate,method,setting,result
CC(C)(C)OC[C@H](NCC(=O)c1ccccc1)C(=O)Nc1ccc(C2SC(=Nc3cccc(F)c3)N(Cc3ccco3)C2=O)cc1,EC50,,genotype 1,replicon,genotype 1b,>50 µM
Cc1ccc(S(=O)(=O)CNC(=O)CN(CC(C)C)C(=O)CCN2C(=O)[C@H](C)C3CC[C@H](C)C4CC[C@]5(C)OO[C@]43C2O5)cc1,EC50,Huh 5-2,,replicon,,3 µM
CC(C)COC(=O)N[C@H](C(=O)N(C)[C@@H](CC1CC1)C(=O)NC(CC1CC1)C(=O)C(=O)NCC(=O)N[C@H](C(=O)N(C)C)c1ccccc1)C1CCCCC1,EC90,,,,,0.95 µM
C[C@H]1CCC2[C@@H](C)C(=O)N(CCC(=O)N(C)CC(=O)NCc3ccccc3)C3O[C@]4(C)CCC1[C@@]23OO4,EC50,Huh 5-2,,replicon,,11 µM
C[C@@]1(O)[C@H](O)[C@@H](CO)O[C@H]1n1cnc2c(N)ncnc21,EC50,1C,Con1,luciferase,,0.37 µM
O=c1/c(=C2/Nc3ccc(C4CCCS4(=O)=O)cc3S(=O)(=O)N2)c(=O)n(Cc2ccc(F)cc2)n2cccc12,EC50,HCV Huh-7/C24,1b,replicon,,0.38 µM
C[C@@]1(O)[C@H](O)[C@@H](CO)O[C@H]1n1ccc(N)nc1=O,EC50,Huh7.5,GT3a,luciferase / replicon,,2.249 µM
CC(C)N1CC[C@@H](N2CCn3c(c(C4CCCCC4)c4sc(C(=O)O)cc43)-c3ccccc3C2)C1,EC50,Huh7,,,,0.19 µM
NC(=O)c1cn([C@@H]2O[C@H](CO)[C@@H](O)[C@H]2O)c2nc[nH]c(=O)c12,EC50,,,replicon,,4 µM
CN1CCN(C(=O)Cn2c(-c3ccccc3)c(C3CCCCC3)c3sc(C(=O)O)cc32)CC1,EC50,Huh7,,,,2.7 µM
COc1ccc([C@H]2Oc3ccc([C@H]4Oc5cc(O)cc(O)c5C(=O)[C@@H]4O)cc3O[C@@H]2CO)cc1O,EC50,,1b,,,40 µM
C=C[C@@H]1C[C@]1(NC(=O)[C@@H]1C[C@@H](Oc2cc(-c3ccccc3)nc3cc(OC)ccc23)CN1C(=O)[C@@H](NC(=O)Oc1ccccc1)C(C)(C)C)C(=O)NS(=O)(=O)C1CC1,EC50,Huh7,1b,replicon,,<0.05 µM
O=C(O)c1ccc2c(c1)nc(-c1ccc(OCc3ccccc3-c3ccc(Cl)cc3)cc1)n2C1CCCCC1,EC50,Huh7,,replicon,,3.2 µM
N#Cc1cn([C@@H]2O[C@H](CO)[C@@H](O)[C@H]2O)c2ncnc(NC3CCCC3)c12,EC50,,,replicon,,7 µM
CN(C)C(=O)c1ccc(-c2ccc(Cl)cc2)c(COc2ccc(-c3nc4cc(C(=O)O)ccc4n3C3CCCCC3)cc2)c1,EC50,Huh7,,replicon,,0.84 µM
CCC[C@H](NC(=O)[C@@H]1C2CCCC2CN1C(=O)[C@@H](NC(=O)[C@@H](NC(=O)c1cnccn1)C1CCCCC1)C(C)(C)C)C(=O)C(=O)N[C@@H](C)c1ccncc1,EC50,Huh7,,replicon,,0.31 µM
CN(C)c1ncnc2c1c(/C(N)=N/O)cn2[C@@H]1O[C@H](CO)[C@@H](O)[C@H]1O,EC50,,,replicon,,9 µM
CCCc1nc(NC(=O)c2ccccc2)nc(NC(=O)c2ccccc2)n1,EC50,Huh7,JFH-1,luciferase,,>10 µM
CC(C)CNC(=O)c1c(C(=O)O)sc2c(C3CCCCC3)c(-c3ccc(Cl)cc3)n(C)c12,EC50,Huh7,,,,30.8 µM
C[C@@]1(O)[C@H](O)[C@@H](CO)O[C@H]1n1c2ncnc(N)c2c2c(N)ncnc21,EC90,Huh7,,replicon,,>10 µM
NC(=O)c1nnn([C@@H]2C[C@H](CCP(=O)(O)O)C[C@H]2O)c1N,EC50,Huh7,,,,>320 µM
CCC[C@H](NC(=O)[C@@H]1C2CCCC2CN1C(=O)[C@@H](NC(=O)[C@@H](NC(=O)c1cnccn1)C1CCCCC1)C(C)(C)C)C(=O)C(=O)N[C@@H](C)CC,EC50,Huh7,,replicon,,0.89 µM
CC(C)OC(=O)[C@H](C)N[P@](=O)(OC[C@H]1O[C@@](C#N)(c2ccc3c(N)ncnn23)[C@](C)(O)[C@@H]1OC(=O)C(C)C)Oc1ccccc1,EC50,Huh7 replicon,3a S52,luciferase,,0.048 µM
CSc1ncnc2c1c(/C(N)=N/O)cn2[C@@H]1O[C@H](CO)[C@@H](O)[C@H]1O,EC50,,,replicon,,1 µM
O=C(Nc1cccc([N+](=O)[O-])c1)c1cccc(C(=O)Nc2cccc([N+](=O)[O-])c2)c1,EC50,Huh7,JFH-1,luciferase,,>10 µM
C=C[C@@H]1C[C@]1(NC(=O)[C@@H]1C[C@@H](c2csc(-c3ccccc3OC)n2)CN1C(=O)C(NC(=O)OC1CCCC1)C(C)(C)C)C(=O)NS(=O)(=O)C1CC1,EC50,Huh7 cells,,replicon,,0.037 µM
CCC[C@H](NC(=O)[C@@H]1C2CCCC2CN1C(=O)[C@@H](NC(=O)[C@@H](NC(=O)c1cnccn1)C(C)CC)C(C)(C)C)C(=O)C(=O)NC1CC1,EC50,Huh7,,replicon,,1.2 µM
C[C@H]1CCC2[C@@H](C)C(=O)N(CCC(=O)N(CC(=O)NC3CCCCC3)C3CCCC3)C3OC4(C)CCC1[C@@]23OO4,EC50,Huh 5-2,,replicon,,7 µM
CC[C@H](C)C(=O)O[C@H]1CC=CC2C=C[C@H](C)[C@H](CC[C@@H]3C[C@@H](O)CC(=O)O3)[C@H]21,EC90,Huh 9-13,,luciferase / replicon,,5.8 µM
CC[C@H](C)[C@H](NC(=O)OC(C)(C)C)C(=O)N1C[C@H](Oc2cc(-c3ccccc3)nc3cc(OC)ccc23)C[C@H]1C(=O)NC1(C(=O)NS(=O)(=O)C2CC2)CC12CCC2,EC50,Huh7,1b,replicon,,<5 µM
C=CC(=O)NCC(=O)N1C[C@H](Oc2nccc3ccc(Br)cc23)C[C@H]1C(=O)N[C@]1(C(=O)NS(=O)(=O)C2CC2)C[C@H]1C=C,EC50,,1b A156T,luciferase,,0.208 µM
CN(c1ccc2c(c1)S(=O)(=O)N/C(=c1\c(=O)c3cccn3n(Cc3ccc(F)cc3)c1=O)N2)S(C)(=O)=O,EC50,HCV Huh-7/C24,1b,replicon,,0.33 µM
CSc1ncnc2c1c(C#N)cn2[C@@H]1O[C@H](CO)[C@@H](O)[C@H]1O,EC50,,,replicon,,0.4 µM
C[C@@]1(O)[C@H](O)[C@@H](CO)O[C@H]1n1cnc2c(N)ncnc21,EC90,Huh7.5,genotype 1b,luciferase / reporter gene,,0.5655 µM
COc1c(C)c2c(c(O)c1CC(=O)O)C(=O)OC2,EC50,Huh7,,,,>40 µM
C[C@@]1(O)[C@H](O)[C@@H](CO)O[C@H]1n1cnc2c(N)ncnc21,EC50,Huh7-Lunet,GT1b,luciferase,,0.206 µM
Nc1nc(N)nc(-c2ccccc2-c2nc(N)nc(N)n2)n1,EC50,Huh7,JFH-1,luciferase,,>10 µM
CC[C@H]1C[C@]1(NC(=O)[C@@H]1C[C@@H]2CN1C(=O)[C@H](C(C)(C)C)NC(=O)OCC(C)(C)CCCCc1cccc3c1CN(C3)C(=O)O2)C(=O)NS(=O)(=O)C1CC1,EC50,Huh7.5,452,antigen,,2.178 µM
C[C@H]1CCC2[C@@H](C)C(=O)N(CCC(=O)N(CC(=O)NCc3ccccc3)c3ccc(Cl)cc3)C3OC4(C)CCC1[C@@]23OO4,EC50,Huh 5-2,,replicon,,6 µM
N=C(N)c1cn([C@@H]2O[C@H](CO)[C@@H](O)[C@H]2O)c2nc[nH]c(=O)c12,EC50,,,replicon,,100 µM
COc1ccc2c(O[C@@H]3C[C@H]4C(=O)N[C@]5(C(=O)NS(=O)(=O)C6CC6)C[C@H]5/C=C\CCCCN(C)C(=O)[C@@H]4C3)cc(-c3nc(C(C)C)cs3)nc2c1C,EC50,Huh7.5,JCH4,antigen,,0.116 µM
COc1ccc2c(O[C@@H]3C[C@@H](C(=O)NC4(C(=O)NS(=O)(=O)C5CC5)CC4)N(C(=O)[C@@H](NC(=O)OC(C)(C)C)C(C)(C)C)C3)cc(-c3ccccc3)nc2c1,EC50,Huh7,1b,replicon,,<5 µM
CC1=CC[C@H](C(=O)N(c2cc(C#CC(C)(C)C)sc2C(=O)O)C2CCC(O)(CO[C@H]3CCOC3)CC2)CC1,EC50,Huh7-Lunet,GT4a,luciferase,,0.348 µM
CS(=O)(=O)Nc1ccc2c(c1)S(=O)(=O)N=C(C1=C(O)[C@@H]3[C@H]4CC[C@H](C4)[C@@H]3N(Cc3ccc(F)cc3)C1=O)N2,EC50,Huh7,GT2a,luciferase / replicon,,>100 µM
CCC[C@H](NC(=O)[C@@H]1[C@H]2CCC[C@H]2CN1C(=O)[C@@H](NC(=O)[C@@H](NC(=O)c1cnccn1)C1CCCCC1)C(C)(C)C)C(=O)C(=O)NC1CC1,EC50,Huh7,,replicon,,0.31 µM
CC1CCC(C(=O)N(c2cc(C#CC(C)(C)C)sc2C(=O)O)C2CCC(O)CC2)CC1,EC50,Huh7,GT2a,luciferase / replicon,,3.998 µM
C[C@H]1CCC2[C@@H](C)C(=O)N(CCC(=O)N(CC=O)CC(=O)NCc3ccccc3)C3O[C@]4(C)CCC1[C@@]23OO4,EC50,Huh 5-2,,replicon,,>70 µM
CCCC(NC(=O)[C@@H]1C2CCCC2CN1C(=O)[C@@H](NC(=O)[C@@H](CC(C1CCCCC1)C1CCCCC1)NC(=O)c1cnccn1)C(C)(C)C)C(=O)C(=O)NC1CC1,EC50,Huh7,,replicon,,2.81 µM
CCCCN(CC(=O)NCc1ccccc1)C(=O)CCN1C(=O)[C@H](C)C2CC[C@H](C)C3CCC4(C)OO[C@]32C1O4,EC50,Huh 5-2,,replicon,,4 µM
O=C(O)CC1OCC=C2CN3CCC45c6ccccc6NC4C1C2CC35,EC50,Huh7,JFH-1,luciferase,,>10 µM
COCCN(CC(=O)NCc1ccccc1)C(=O)CCN1C(=O)[C@H](C)C2CC[C@H](C)C3CC[C@]4(C)OO[C@]32C1O4,EC50,Huh 5-2,,replicon,,6 µM
Nc1ncnc2c1c1c(N)ncnc1n2[C@@H]1O[C@H](CO)[C@@H](O)[C@H]1O,EC90,Huh7,,replicon,,>10 µM
CC(C)CN(CC(=O)NCc1ccccc1)C(=O)CCN1C(=O)[C@H](C)C2CC[C@H](C)C3CC[C@]4(C)OO[C@]32C1O4,EC50,Huh 5-2,,replicon,,5 µM
O=S(=O)(F)c1ccc2nc(-c3cccc(Sc4ccccc4)c3)cc(Cl)c2c1,EC50,Huh7,JFH-1,luciferase,,>10 µM
NC(=O)c1cn([C@@H]2C[C@H](CCP(=O)(O)O)C[C@H]2O)nn1,EC50,Huh7,,,,>320 µM
COc1ccc([C@@H]2Oc3ccc([C@H]4Oc5cc(O)cc(O)c5C(=O)[C@@H]4O)cc3O[C@H]2CO)cc1O,EC50,,1b,,,53.9 µM
CCN(CC)C1CCN(C(=O)Cn2c(-c3ccc(Cl)cc3)c(C3CCCCC3)c3ccc(C(=O)O)cc32)CC1,EC50,Huh7,,replicon,,0.15 µM
CCOC(=O)[C@H](C)NP(=O)(OC[C@H]1O[C@@H](n2c3ncnc(N)c3c3c(N)ncnc32)[C@](C)(O)[C@@H]1O)Oc1ccccc1,EC90,Huh7,,replicon,,>10 µM
N#Cc1cn([C@@H]2O[C@H](CO)[C@@H](O)[C@H]2O)c2ncnc(NCCCN3CCOCC3)c12,EC50,,,replicon,,4.5 µM

Repeating the first 9 entries:

SMILES	read-out	cell line	strain or isolate	method	setting	result
CC(C)(C)OC[C@H](NCC(=O)c1ccccc1)C(=O)Nc1ccc(C2SC(=Nc3cccc(F)c3)N(Cc3ccco3)C2=O)cc1	EC50		genotype 1	replicon	genotype 1b	>50 µM
Cc1ccc(S(=O)(=O)CNC(=O)CN(CC(C)C)C(=O)CCN2C(=O)[C@H](C)C3CC[C@H](C)C4CC[C@]5(C)OO[C@]43C2O5)cc1	EC50	Huh 5-2		replicon		3 µM
CC(C)COC(=O)N[C@H](C(=O)N(C)[C@@H](CC1CC1)C(=O)NC(CC1CC1)C(=O)C(=O)NCC(=O)N[C@H](C(=O)N(C)C)c1ccccc1)C1CCCCC1	EC90					0.95 µM
C[C@H]1CCC2[C@@H](C)C(=O)N(CCC(=O)N(C)CC(=O)NCc3ccccc3)C3O[C@]4(C)CCC1[C@@]23OO4	EC50	Huh 5-2		replicon		11 µM
C[C@@]1(O)[C@H](O)[C@@H](CO)O[C@H]1n1cnc2c(N)ncnc21	EC50	1C	Con1	luciferase		0.37 µM
O=c1/c(=C2/Nc3ccc(C4CCCS4(=O)=O)cc3S(=O)(=O)N2)c(=O)n(Cc2ccc(F)cc2)n2cccc12	EC50	HCV Huh-7/C24	1b	replicon		0.38 µM
C[C@@]1(O)[C@H](O)[C@@H](CO)O[C@H]1n1ccc(N)nc1=O	EC50	Huh7.5	GT3a	luciferase / replicon		2.249 µM
CC(C)N1CC[C@@H](N2CCn3c(c(C4CCCCC4)c4sc(C(=O)O)cc43)-c3ccccc3C2)C1	EC50	Huh7				0.19 µM
NC(=O)c1cn([C@@H]2O[C@H](CO)[C@@H](O)[C@H]2O)c2nc[nH]c(=O)c12	EC50			replicon		4 µM